# Measurements: PubChem BioAssay AID1053131 (The Scripps Research Institute Molecular Screening Center, 2014)
# The entries are a selection whose mix differs from that of the whole data set. Calls of active or inactive are those of the source. Cut-off read from the data, not from the text of the source: active = activation above about 8.9%; inactive = the rest.
# Tested on: HIV-1 integrase (multimerization)
# Assay: HIV-1 IN multimer formation enhancers, counter-screen for LEDGF/p75 integration inhibitor project, biochemical, TR-FRET (AID 1053131)
# Settings: TR-FRET HIV-1 integrase multimerization, at 7.7 µM, active compounds read high
row,Structure (SMILES),activation
1,CCOC(=O)c1ccc(NP(C)(=O)Oc2ccc(Cl)cc2)cc1 (stereo unspecified),inactive: -0.23%
